# Assay results taken from US9174988B2, “Small molecule inhibitors of hepatitis C virus” (TRUSTEES OF BOSTON UNIVERSITY, priority 2009, dated 2015).
# System: HCV 2a J6/JFH-1
# Experiment: HCV infectivity assay by real-time RT-PCR of HCV RNA (EC50 at T1 and T2)
# Conditions: read-out: HCV 2A T1 - EC50; early stage (T1); Table 3
# Description: In this assay HCV infectivity is measured using real-time RT-PCR to monitor changes in expression of HCV 2a J6/JFH-1 RNA. Cells are incubated with test compound in the presence of HCV, followed by isolation of RNA, conversion to cDNA, and Taqman-based QPCR. As designed, a compound that inhibits HCV infectivity will reduce HCV RNA expression, leading to decreased production of the PCR amplicon, thereby reducing fluorescence, and increasing Ct.
# Huh-7.5 cells were plated the day before the assay. After allowing the cells to adhere overnight, test compound was prepared in HCV supernatant by making 1:10 serial dilutions from 100 micromolar down to 0.001 micromolar. […] Quantitative real-time polymerase chain reaction (PCR) was performed in triplicate using LightCycler RNA Amplification Kit HybProbe master mix (Roche) with Taqman MGB Probe 6FAM-[…]-MGBNFQ on a model LightCycler480 real time PCR system (Roche). Data are expressed as the mean fold change plus or minus SE of 3 replicates normalized to 100 ug total RNA. […]
# The compounds were then studied in the same Huh7-5 cells infected with HCV 2a strain J6/JFH-1 (Kota, et al., ASSAY Drug Dev. Tech (2009) 8: 96). […] HCV RNA detected in T1 results from actual viral infection and replication. HCV RNA detected in T2 results from infectious virus secreted in T1 and replicated in freshly infected naïve cells. […]
structure (smiles),measurement,value
COC(=O)C1=C(C(=O)OC)C2N(CCOCCN3c4ccccc4[C@]45CCC(=O)N(Cc6ccccc6)C4=NC(C(=O)OC)=C(C(=O)OC)C35)c3ccccc3[C@@]23CCC(=O)N(Cc2ccccc2)C3=N1 (stereo partly shown),pEC50,6.32

# pEC50: −log10 of the molar value.
